{"source": "paper PMC8105722", "about": "(The Journal of Experimental Medicine, 2021)", "assay_in_all_cases": "purified protein", "key": {"[1]": {"tested_on": "C=C(O[C@@H]1C=C(C(=O)O)C=C[C@H]1N)C(=O)O", "settings": "pH 8.5; 25.0 °C"}, "[2]": {"tested_on": "N[C@H](CCC(=O)O)C(=O)O", "settings": "pH 8.5"}, "[3]": {"tested_on": "C[C@@H](N)C(=O)O", "settings": "pH 8.5; 25.0 °C"}}}
{"substance": "(Mycobacterium tuberculosis H37Rv)", "values": [{"measurement": "Km", "setting": "[1]", "result": 400, "unit": "µM"}, {"measurement": "Km", "setting": "[2]", "result": "240 ± 50", "unit": "µM"}, {"measurement": "Km", "setting": "[3]", "result": "7300 ± 1100", "unit": "µM"}]}
